One compound from PMC12118597 (Science Advances, 2025) can be followed below.

Assay [1] has as its target T1, SARS-CoV-2 NSP3 macrodomain (Mac1) (Severe acute respiratory syndrome coronavirus 2, UniProt P0DTD1).
Assay [2] deals with T1, SARS-CoV-2 NSP3 macrodomain (Mac1). The source holds these as a separate data set.

Values joined by “and” are separate entries in the source; they are usually repeats but may differ in a detail not shown here. Equal values may be shown once.

Consider `Cc1c[nH]c2ncnc(NCC3(O)CCCCC3)c12` [AVI-3761, 1-(((5-methyl-7H-pyrrolo[2,3-d]pyrimidin-4-yl)amino)methyl)cyclohexan-1-ol], for which, in assay [1], the Hill slope was found to be 1.1 and the Hillslope worked out at 1.1. For the same compound, in assay [2], the 1-BDC came out at 0.2; the “1-BDC (PanDDA run, DMSO background map)” value was 0.2 and 0.19; the “2*(1-BDC) (%)” value is 40%; the Binding site result is “Adenosine”. Besides, in assay [2], the “Hit (PanDDA run, DMSO background map)” value is on record as “TRUE”; the “Hit (PanDDA run, overall)” value is on record as “TRUE”; the “Refined ligand occupancy (%)” value amounted to 60%; the X-ray crystal structure entry is recorded as “TRUE”.
